Source: patent EP1935986B1, “Luminogenic and fluorogenic compounds and methods to detect molecules or conditions” (priority 2005, dated 2006)

The chains behind the UniProt entries cited, without tags or fusion partners.
UniProt P08659, whole entry: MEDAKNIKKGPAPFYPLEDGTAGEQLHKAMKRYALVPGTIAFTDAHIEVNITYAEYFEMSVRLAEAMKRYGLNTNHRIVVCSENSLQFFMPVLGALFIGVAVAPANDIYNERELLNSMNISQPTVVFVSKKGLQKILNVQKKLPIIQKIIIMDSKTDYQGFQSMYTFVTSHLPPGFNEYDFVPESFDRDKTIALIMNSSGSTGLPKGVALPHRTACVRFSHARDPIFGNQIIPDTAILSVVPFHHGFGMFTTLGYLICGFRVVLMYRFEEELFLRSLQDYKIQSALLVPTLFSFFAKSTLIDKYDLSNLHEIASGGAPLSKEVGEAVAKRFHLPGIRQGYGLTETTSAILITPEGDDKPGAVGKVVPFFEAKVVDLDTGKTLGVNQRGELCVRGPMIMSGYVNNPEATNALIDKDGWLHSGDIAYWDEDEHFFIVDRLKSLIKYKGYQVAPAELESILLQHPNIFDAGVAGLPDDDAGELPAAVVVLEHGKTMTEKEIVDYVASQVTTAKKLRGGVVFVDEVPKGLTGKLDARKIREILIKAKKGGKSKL

Target: QuantiLum Luciferase (Photinus pyralis, UniProt P08659)
Experiment: pH dependence of firefly luciferase luminescence with luciferin or 5'-fluoroluciferin
Type: biochemical
Set-up: purchased Promega Corporation E170
Details: pH 7.89 reagent

increase of luminescence when buffer changed from HEPES to tricine: 28%
Structure (SMILES): O=C(O)[C@H]1CSC(c2nc3ccc(O)cc3s2)=N1 [luciferin, (4S)-4,5-dihydro-2-(6-hydroxybenzothiazolyl)-4-thiazolecarboxylic acid, reference compound]
